## HIV-1 5' UTR: DMS reactivities by position

Values reported by Ye et al. 2022 (doi:10.1038/s41594-022-00746-2).

The 5' region of HIV-1 NL4-3 RNA (positions 1-437):
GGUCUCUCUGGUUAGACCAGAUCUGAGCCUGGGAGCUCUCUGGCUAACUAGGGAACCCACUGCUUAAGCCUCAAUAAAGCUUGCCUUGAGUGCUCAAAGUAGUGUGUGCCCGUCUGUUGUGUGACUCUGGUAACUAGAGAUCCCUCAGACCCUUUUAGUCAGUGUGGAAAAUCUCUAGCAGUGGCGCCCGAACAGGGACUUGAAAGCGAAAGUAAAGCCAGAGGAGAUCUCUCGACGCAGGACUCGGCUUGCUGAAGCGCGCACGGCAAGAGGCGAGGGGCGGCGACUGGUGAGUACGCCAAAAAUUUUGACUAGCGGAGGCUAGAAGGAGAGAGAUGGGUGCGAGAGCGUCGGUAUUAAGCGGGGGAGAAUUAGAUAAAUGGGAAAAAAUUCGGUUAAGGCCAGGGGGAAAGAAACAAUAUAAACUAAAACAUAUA

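Mutant RNA libraries with 1G, 2G or 3G starts, with or without cap, were folded at 37 °C for 30 min. Monomer and dimer bands were cut from native gels after folding in high salt (300 mM KCl, 5 mM MgCl2) or low salt (40 mM KCl, 0.1 mM MgCl2). Gel slices were treated with 170 mM dimethyl sulfate for 15 min at 37 °C and read by mutational profiling against an ethanol control.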

Values are winsor-normalised DMS reactivities of A and C; higher means more reactive, usually unpaired.
One numbering serves 1G, 2G and 3G.
A position is written with its base.

position,domain,3G capped low-salt dimer,2G uncapped low-salt dimer,2G uncapped high-salt monomer
A19,TAR,0.03,0.04,0.03
C28,TAR,0.03,0.05,0.03
A55,TAR,0.17,0.25,0.31
C63,PolyA,0.51,0.11,0.21
A74,PolyA,0.78,0.65,0.75
A76,PolyA,0.23,0.25,0.31
C95,PolyA,0.37,0.57,0.56
A97,PolyA,0.55,0.31,0.47
C114,none,0.15,0.26,0.24
C125,PAS,0.06,0.08,0.08
A140,PBS,0.35,0.33,0.39
C142,PBS,0.07,0.07,0.08
A147,PBS,0.41,0.46,0.44
C150,PBS,0.04,0.04,0.07
A157,PBS,0.88,0.96,0.98
C160,PBS,0.06,0.05,0.05
A161,PBS,0.44,0.48,0.50
A168,PBS,0.43,0.47,0.42
A170,PBS,0.48,0.49,0.61
C179,PBS,0.96,0.84,0.82
A180,PBS,0.65,0.60,0.60
A191,PBS,0.38,0.39,0.47
C199,PBS,0.44,0.50,0.43
A220,antiPAS,0.18,0.23,0.37
C238,none,0.48,0.50,0.69
C243,SL1,0.03,0.04,0.06
A255,SL1,0.41,0.48,0.59
A271,SL1,0.46,0.57,0.57
A286,SL2,0.58,0.65,0.57
C297,SL2,0.13,0.15,0.17
C300,none,0.07,0.04,0.10
A303,none,0.07,0.07,0.09
A304,none,0.14,0.16,0.22
A332,none,0.49,0.51,0.62
A347,none,0.17,0.28,0.34
C349,none,0.23,0.35,0.37
C352,none,0.39,0.42,0.36
A356,none,0.99,0.99,0.95
A359,none,0.47,0.58,0.56
C362,none,0.36,0.43,0.40
A370,none,0.51,0.55,0.55
A386,none,1.28,1.38,1.24
A404,none,0.29,0.31,0.23
A416,none,0.43,0.48,0.48
A423,none,0.39,0.44,0.46
A425,none,0.48,0.57,0.52
C426,none,0.70,0.84,0.72
A430,none,0.51,0.55,0.62

2 of these entries, quoted again:

position,domain,3G capped low-salt dimer,2G uncapped low-salt dimer,2G uncapped high-salt monomer
C352,none,0.39,0.42,0.36
A303,none,0.07,0.07,0.09